Anti-infective test results gathered from many reports (values: NIAID ChemDB through PubChem).

Common to all: growth or infection tests; organism: Mycobacterium avium complex; read-out: MIC

Neighbouring rows are from separate reports. Two numbers with a dash give a range or band.

{"compound": "CCCCCCCCO[C@H]1O[C@H](CO[C@H]2O[C@H](CO)[C@@H](O)[C@@H]2O)[C@@H](OC)[C@@H]1OC", "strain": "NJ211", "value": ">128 µg/mL"}
{"compound": "NCC[C@H](O)C(=O)N[C@@H]1C[C@H](N)[C@@H](O[C@H]2O[C@H](CN)[C@@H](O)[C@H](O)[C@H]2O)[C@H](O)[C@H]1O[C@H]1O[C@H](CO)[C@@H](O)[C@H](N)[C@H]1O", "strain": "ATCC 35718", "value": "16 µg/mL"}
{"compound": "CCCCCCCCCCCCCCO/N=C1\\[C@H](C)CC(C)(O)[C@H](O[C@@H]2O[C@H](C)C[C@H](N(C)C)[C@H]2O)[C@@H](C)[C@H](OC2C[C@@](C)(OC)[C@@H](O)[C@H](C)O2)[C@@H](C)C(=O)O[C@H](CC)[C@@](C)(O)[C@H](O)[C@H]1C", "strain": "20096", "value": ">50 µg/mL"}
{"compound": "CC1(C)N=C(N)N=C(N)N1OCCCOc1cc(Cl)c(Cl)cc1Cl", "strain": "DW25", "value": "2 µg/mL"}
{"compound": "CC[C@H]1OC(=O)[C@H](C)[C@@H](OC2C[C@@](C)(OC)[C@@H](O)[C@H](C)O2)[C@H](C)[C@@H](O[C@@H]2O[C@H](C)C[C@H](N(C)C)[C@H]2O)C(C)(O)C[C@@H](C)/C(=N\\OCCCc2ccccc2)[C@H](C)[C@@H](O)[C@]1(C)O", "strain": "20039", "value": "1.56 µg/mL"}
{"compound": "NNC(=O)c1ccncc1", "strain": "13884", "value": "0.4–0.63 µg/mL"}
{"compound": "CC1(C)N=C(N)N=C(N)N1OCCCOc1cc(Cl)c(Cl)cc1Cl", "strain": "2212", "value": "4 µg/mL"}
{"compound": "CO/C(=N\\N=C\\c1ccc(OC)c(F)c1)c1ccncc1", "strain": "12592 PI", "value": ">5 µg/mL"}
{"compound": "CC[C@H]1OC(=O)[C@H](C)[C@@H](OC2C[C@@](C)(OC)[C@@H](O)[C@H](C)O2)[C@H](C)[C@@H](O[C@@H]2O[C@H](C)C[C@H](N(C)C)[C@H]2O)C(C)(O)C[C@@H](C)/C(=N\\OCCCC2CCCCC2)[C@H](C)[C@@H](O)[C@]1(C)O", "strain": "20039", "value": "3.13 µg/mL"}
{"compound": "CO[C@H]1/C=C/O[C@@]2(C)Oc3c(C)c(O)c4c(O)c(c5c(c4c3C2=O)NC2(CCN(CC(C)C)CC2)N=5)=NC(=O)/C(C)=C\\C=C\\[C@H](C)[C@H](O)[C@@H](C)[C@@H](O)[C@@H](C)[C@H](OC(C)=O)[C@@H]1C", "strain": "168-4", "value": "0.5 µg/mL"}
{"compound": "CO/C(=N\\N=C\\c1cc(OC)ccc1OC)c1ccncc1", "strain": "12592 PI", "value": ">20 µg/mL"}
{"compound": "CCCCCCCCO[C@H]1O[C@H](CO[C@H]2O[C@H](CO)[C@@H](O)[C@@H]2O)[C@@H](O)[C@@H]1O", "strain": "NJ211", "value": ">128 µg/mL"}
{"compound": "NC[C@H]1O[C@H](O[C@H]2[C@H](O)[C@@H](O[C@H]3O[C@H](CO)[C@@H](O)[C@H](N)[C@H]3O)[C@H](N)C[C@@H]2N)[C@H](O)[C@@H](O)[C@@H]1O", "strain": "ATCC 35718", "value": "8 µg/mL"}
{"compound": "CC[C@H]1OC(=O)[C@H](C)[C@@H](OC2C[C@@](C)(OC)[C@@H](O)[C@H](C)O2)[C@H](C)[C@@H](O[C@@H]2O[C@H](C)C[C@H](N(C)C)[C@H]2O)C(C)(O)C[C@@H](C)/C(=N\\OCCc2ccccc2)[C@H](C)[C@@H](O)[C@]1(C)O", "strain": "20096", "value": "25 µg/mL"}
{"compound": "CN[C@@H]1[C@@H](O)C(O[C@@H]2[C@@H](O)[C@H](OC3O[C@H](CN)[C@@H](O)[C@H](O)[C@H]3O)[C@@H](N)C[C@H]2NC(=O)[C@@H](O)CN)OC[C@]1(C)O", "strain": "J14", "value": "12.5 µg/mL"}
{"compound": "CN[C@@H]1[C@H](O[C@H]2[C@H](O[C@H]3[C@H](O)[C@@H](O)[C@H](N=C(N)N)[C@@H](O)[C@@H]3N=C(N)N)O[C@@H](C)[C@]2(O)C=O)O[C@@H](CO)[C@H](O)[C@H]1O", "strain": "ATCC 35718", "value": "8 µg/mL"}
{"compound": "C/C(=N\\NC(=O)c1ccncc1)c1ccc(F)cc1", "strain": "12592 PI", "value": ">5 µg/mL"}
{"compound": "CCO/N=C1\\[C@H](C)CC(C)(O)[C@H](O[C@@H]2O[C@H](C)C[C@H](N(C)C)[C@H]2O)[C@@H](C)[C@H](OC2C[C@@](C)(OC)[C@@H](O)[C@H](C)O2)[C@@H](C)C(=O)O[C@H](CC)[C@@](C)(O)[C@H](O)[C@H]1C", "strain": "20092", "value": ">50 µg/mL"}
{"compound": "CC[C@H]1OC(=O)[C@H](C)[C@@H](O[C@H]2C[C@@](C)(OC)[C@@H](O)[C@H](C)O2)[C@H](C)[C@@H](O[C@@H]2O[C@H](C)C[C@H](N(C)C)[C@H]2O)[C@](C)(OC)C[C@@H](C)C(=O)[C@H](C)[C@@H](O)[C@]1(C)O", "strain": "4 strains", "value": "4–8 µg/mL"}
{"compound": "CO[C@H]1/C=C/O[C@@]2(C)Oc3c(C)c(O)c4c(=O)c(c5oc6cc(N7CCN(CC(C)C)CC7)cc(=O)c6nc5c4c3=C2O)NC(=O)/C(C)=C\\C=C\\[C@H](C)[C@H](O)[C@@H](C)[C@@H](O)[C@@H](C)[C@H](OC(C)=O)[C@@H]1C", "strain": "N-444", "value": "0.025 µg/mL"}
{"compound": "CO[C@H]1/C=C/O[C@@]2(C)Oc3c(C)c(O)c4c(=O)c(c5oc6cc(N7CCN(CC(C)C)CC7)cc(=O)c6nc5c4c3=C2O)NC(=O)/C(C)=C\\C=C\\[C@H](C)[C@H](O)[C@@H](C)[C@@H](O)[C@@H](C)[C@H](OC(C)=O)[C@@H]1C", "strain": "N-966 (HIV+)", "value": "0.05 µg/mL"}
{"compound": "CC[C@H]1OC(=O)[C@H](C)[C@@H](O[C@H]2C[C@@](C)(OC)[C@@H](O)[C@H](C)O2)[C@H](C)[C@@H](O[C@@H]2O[C@H](C)C[C@H](N(C)C)[C@H]2O)[C@](C)(OC)C[C@@H](C)C(=O)[C@H](C)[C@@H](O)[C@]1(C)O", "strain": "F-2", "value": "4 µg/mL"}
{"compound": "CC[C@H]1OC(=O)[C@H](C)[C@@H](OC2C[C@@](C)(OC)[C@@H](O)[C@H](C)O2)[C@H](C)[C@@H](O[C@@H]2O[C@H](C)C[C@H](N(C)C)[C@H]2O)C(C)(O)C[C@@H](C)/C(=N\\OCCN(C)c2ccccc2)[C@H](C)[C@@H](O)[C@]1(C)O", "strain": "20039", "value": "1.56 µg/mL"}
{"compound": "CO/C(=N\\N=C\\c1ccc(Cl)cc1)c1ccncc1", "strain": "12592 PI", "value": ">5 µg/mL"}
{"compound": "CC[C@H]1OC(=O)[C@H](C)[C@@H](O[C@H]2C[C@@](C)(OC)[C@@H](O)[C@H](C)O2)[C@H](C)[C@@H](O[C@@H]2O[C@H](C)C[C@H](N(C)C)[C@H]2O)[C@](C)(O)C[C@@H](C)/C(=N\\OCOCCOC)[C@H](C)[C@@H](O)[C@]1(C)O", "strain": "CIPT 140310002", "value": "1 µg/mL"}
{"compound": "CC[C@@]1(O)OC(=O)[C@H](C)[C@@H](O[C@H]2C[C@@](C)(OC)[C@@H](O)[C@H](C)O2)[C@H](C)[C@@H](O[C@@H]2O[C@H](C)C[C@H](N(C)C)[C@H]2O)[C@](C)(OC)C[C@@H](C)C(=O)[C@H](C)[C@@H](O)[C@]1(C)O", "strain": "LV-2", "value": "2 µg/mL"}
{"compound": "CC[C@@]1(O)OC(=O)[C@H](C)[C@@H](O[C@H]2C[C@@](C)(OC)[C@@H](O)[C@H](C)O2)[C@H](C)[C@@H](O[C@@H]2O[C@H](C)C[C@H](N(C)C)[C@H]2O)[C@](C)(OC)C[C@@H](C)C(=O)[C@H](C)[C@@H](O)[C@]1(C)O", "value": "8 µg/mL"}
{"compound": "CC[C@H]1OC(=O)[C@H](C)[C@@H](O[C@H]2C[C@@](C)(OC)[C@@H](O)[C@H](C)O2)[C@H](C)[C@@H](O[C@@H]2O[C@H](C)C[C@H](N(C)C)[C@H]2O)[C@](C)(OC)C[C@@H](C)C(=O)[C@H](C)[C@@H](O)[C@]1(C)O", "strain": "20096", "value": ">50 µg/mL"}
{"compound": "CO/C(=N\\N=C\\c1ccc(C(F)(F)F)cc1)c1ccncc1", "strain": "12592 PI", "value": ">1 µg/mL"}
{"compound": "Cc1cc(-c2cc3c(cc2F)c(=O)c(C(=O)O)cn3C2CC2)cc(C)n1", "strain": "MO-1", "value": "1 µg/mL"}

A second listing of 4 rows from above:

compound	strain	value
NCC[C@H](O)C(=O)N[C@@H]1C[C@H](N)[C@@H](O[C@H]2O[C@H](CN)[C@@H](O)[C@H](O)[C@H]2O)[C@H](O)[C@H]1O[C@H]1O[C@H](CO)[C@@H](O)[C@H](N)[C@H]1O	ATCC 35718	16 µg/mL
CCO/N=C1\[C@H](C)CC(C)(O)[C@H](O[C@@H]2O[C@H](C)C[C@H](N(C)C)[C@H]2O)[C@@H](C)[C@H](OC2C[C@@](C)(OC)[C@@H](O)[C@H](C)O2)[C@@H](C)C(=O)O[C@H](CC)[C@@](C)(O)[C@H](O)[C@H]1C	20092	>50 µg/mL
CO/C(=N\N=C\c1ccc(C(F)(F)F)cc1)c1ccncc1	12592 PI	>1 µg/mL
CCCCCCCCO[C@H]1O[C@H](CO[C@H]2O[C@H](CO)[C@@H](O)[C@@H]2O)[C@@H](O)[C@@H]1O	NJ211	>128 µg/mL